Measured data: PubChem BioAssay AID624099 (ICCB-Longwood, 2012)
Test: 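Knock-downs relieving repression by E2 of an HPV18 LCR luciferase reporter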 (primary screen). Cells: human C33A cervical carcinoma cells (HPV-negative) stably expressing BPV1 E2 and an HPV18 LCR luciferase reporter. Reagents: siRNA pool against human genes, 40 nM. Timing: 72 h. Detection: 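Per-well luciferase luminescence, z-scored on each plate against the plate mean and SD with control wells left out, then averaged across three replicate plates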. Scale: mean z-score and z-score: higher = stronger reporter signal, weaker E2 silencing. Call rule: 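Hit if mean z-score reaches 2 and two or more of three replicate z-scores also reach 2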.
Shown is an unselected part of about 21,000 reagents. In the full data, 497 (2.4%) are marked active. 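Higher z means weaker E2 silencing; only reporter increases were scored, and knock-downs that hurt cell survival may mask genuine repressor factors.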

no.	gene knocked down	mean z-score	z-score, replicate A	z-score, replicate B	z-score, replicate C	call
1	FLJ12120 (retired record) (GeneID 388439)	-0.73	-0.72	-0.55	-0.92	inactive
2	DAOA (GeneID 267012)	-2.44	-2.17	-2.72	-2.43	inactive
3	DEPDC5 (GeneID 9681)	2.19	2.28	2.26	2.03	active
4	ROCK1 (GeneID 6093)	0.4	0.62	0.22	0.35	inactive
5	HADHB (GeneID 3032)	-1.39	-1.39	-1.52	-1.26	inactive
6	ATG3 (GeneID 64422)	0.7	0.55	0.8	0.76	inactive
7	RAB30 (GeneID 27314)	-1.01	-0.99	-1.08	-0.97	inactive
8	WDR89 (GeneID 112840)	1.74	2	1.52	1.71	inactive
9	ZNF711 (GeneID 7552)	0	-0.09	0.08	0.01	inactive
10	ESR1 (GeneID 2099)	0.34	0.46	0.1	0.46	inactive
11	ATAT1 (GeneID 79969)	1.01	1.08	1.33	0.62	inactive
12	UBALD1 (GeneID 124402)	-0.13	-0.29	-0.29	0.19	inactive
13	MANEAL (GeneID 149175)	-2.2	-1.79	-2.39	-2.42	inactive
14	SNAPC5 (GeneID 10302)	-0.1	-0.25	0	-0.06	inactive
15	HMGCL (GeneID 3155)	-0.33	-0.65	0.01	-0.37	inactive
16	TMEM141 (GeneID 85014)	2.66	2.58	2.62	2.78	active
17	RAB5A (GeneID 5868)	-0.55	-0.63	-0.58	-0.45	inactive
18	CDK19 (GeneID 23097)	-0.05	-0.05	-0.03	-0.07	inactive
19	EIF5AL1 (GeneID 143244)	-0.84	-0.84	-0.87	-0.82	inactive
20	SCIN (GeneID 85477)	0.3	0.37	0.12	0.41	inactive
21	MSANTD1 (GeneID 345222)	-0.04	0.12	-0.18	-0.06	inactive
22	FRZB (GeneID 2487)	-0.07	-0.09	-0.12	-0.01	inactive
23	POPDC3 (GeneID 64208)	0.91	0.74	1.35	0.63	inactive
24	CIRBP-AS1 (GeneID 148046)	0.11	0.42	0.14	-0.23	inactive
25	NRM (GeneID 11270)	0.31	0.5	0.34	0.07	inactive
26	SCAND3 (GeneID 114821)	0.78	0.99	0.51	0.84	inactive
27	OSTC (GeneID 58505)	1.04	1.56	1.12	0.42	inactive
28	CHRAC1 (GeneID 54108)	-0.05	-0.04	-0.15	0.03	inactive
29	NADSYN1 (GeneID 55191)	1.68	1.93	1.68	1.42	inactive
30	GIMAP1 (GeneID 170575)	-1.09	-1.64	-0.66	-0.96	inactive
31	PDE9A (GeneID 5152)	0.74	0.75	0.74	0.74	inactive
32	CLCN3 (GeneID 1182)	0.82	0.8	1.01	0.66	inactive
33	EMCN (GeneID 51705)	-0.01	0.33	-0.04	-0.32	inactive
34	ADAMTS12 (GeneID 81792)	-0.78	-0.97	-0.75	-0.63	inactive

No new results follow: an excerpt of the list.
no.	gene knocked down	mean z-score	z-score, replicate A	z-score, replicate B	z-score, replicate C	call
25	NRM (GeneID 11270)	0.31	0.5	0.34	0.07	inactive
26	SCAND3 (GeneID 114821)	0.78	0.99	0.51	0.84	inactive
27	OSTC (GeneID 58505)	1.04	1.56	1.12	0.42	inactive
28	CHRAC1 (GeneID 54108)	-0.05	-0.04	-0.15	0.03	inactive
29	NADSYN1 (GeneID 55191)	1.68	1.93	1.68	1.42	inactive
30	GIMAP1 (GeneID 170575)	-1.09	-1.64	-0.66	-0.96	inactive
31	PDE9A (GeneID 5152)	0.74	0.75	0.74	0.74	inactive
32	CLCN3 (GeneID 1182)	0.82	0.8	1.01	0.66	inactive

The listing continues.
no.	gene knocked down	mean z-score	z-score, replicate A	z-score, replicate B	z-score, replicate C	call
35	MTRR (GeneID 4552)	0.15	-0.05	-0.08	0.59	inactive
36	L3HYPDH (GeneID 112849)	-0.42	-0.58	-0.21	-0.46	inactive
37	PIWIL2 (GeneID 55124)	2.64	2.12	2.69	3.11	active
38	TLE1 (GeneID 7088)	0.08	-0.09	0.21	0.12	inactive
39	TIPARP (GeneID 25976)	-0.29	-0.23	-0.05	-0.6	inactive
40	GDI1 (GeneID 2664)	1.08	1.47	0.69	1.08	inactive
41	MGC40069 (retired record) (GeneID 348035)	1.26	1.26	1.34	1.2	inactive
42	REG4 (GeneID 83998)	-0.3	-0.38	0	-0.53	inactive
43	PER3 (GeneID 8863)	0.61	0.93	0.61	0.3	inactive
44	AKR1C2 (GeneID 1646)	-0.69	-0.6	-0.77	-0.7	inactive
45	GLYCTK (GeneID 132158)	-2.24	-2.26	-2.16	-2.29	inactive
46	GZMH (GeneID 2999)	0.22	-0.15	0.47	0.35	inactive
47	CDC7 (GeneID 8317)	-0.33	-0.2	-0.47	-0.34	inactive
48	POLH (GeneID 5429)	0.38	0.34	0.11	0.69	inactive
49	PA2G4 (GeneID 5036)	1.45	1.18	1.49	1.68	inactive
50	BCS1L (GeneID 617)	-0.09	-0.47	0.35	-0.14	inactive
51	ZFP28 (GeneID 140612)	0.9	1.08	0.82	0.82	inactive
52	PAPOLG (GeneID 64895)	0.96	0.81	0.85	1.22	inactive
53	ZNF592 (GeneID 9640)	-1.63	-1.82	-1.51	-1.56	inactive
54	ICAM4 (GeneID 3386)	-0.44	-0.36	-0.43	-0.54	inactive
55	GNPAT (GeneID 8443)	1	1.18	0.76	1.07	inactive
56	CEP63 (GeneID 80254)	-0.3	-0.2	-0.14	-0.57	inactive
57	IQSEC1 (GeneID 9922)	0.06	0.09	0.09	0.01	inactive
58	OXGR1 (GeneID 27199)	-1.73	-1.82	-1.74	-1.64	inactive
59	OCLN (GeneID 100506658)	0.9	0.88	0.8	1.01	inactive
60	PITHD1 (GeneID 57095)	1.21	1.28	1.08	1.26	inactive
61	PXK (GeneID 54899)	0.53	0.28	0.79	0.53	inactive
62	VSTM2B (GeneID 342865)	-0.69	-0.82	-0.86	-0.39	inactive
63	SOX9-AS1 (GeneID 400618)	3.27	3.44	3.24	3.12	active
64	SNRPD1 (GeneID 6632)	-1.32	-1.41	-1.56	-0.99	inactive
65	ING2-DT (GeneID 389247)	1.03	1.09	1.42	0.59	inactive
66	RPL23AP12 (GeneID 391282)	0.85	1.02	0.73	0.8	inactive
67	ELP5 (GeneID 23587)	-0.33	-0.13	-0.33	-0.52	inactive
68	PLA2G4C (GeneID 8605)	1.88	2.2	2.1	1.32	inactive
69	LOC100506459 (GeneID 100506459)	0.51	0.58	0.51	0.44	inactive
70	TAOK3 (GeneID 51347)	-0.08	-0.1	-0.14	0	inactive
71	CDKL2 (GeneID 8999)	0.52	0.38	0.46	0.73	inactive
72	PAICS (GeneID 10606)	0.71	0.45	0.73	0.94	inactive
73	ADGRL1 (GeneID 22859)	-0.29	-0.62	0.01	-0.27	inactive
